Results: ChEMBL document CHEMBL2010748, “Structure-Activity Relationship Studies of HIV-1 Integrase Oligonucleotide Inhibitors” (ACS Med Chem Lett, 2011)

The chains behind the UniProt entries cited, without tags or fusion partners. Residues count along the entry.
UniProt Q7ZJM1, 1-288: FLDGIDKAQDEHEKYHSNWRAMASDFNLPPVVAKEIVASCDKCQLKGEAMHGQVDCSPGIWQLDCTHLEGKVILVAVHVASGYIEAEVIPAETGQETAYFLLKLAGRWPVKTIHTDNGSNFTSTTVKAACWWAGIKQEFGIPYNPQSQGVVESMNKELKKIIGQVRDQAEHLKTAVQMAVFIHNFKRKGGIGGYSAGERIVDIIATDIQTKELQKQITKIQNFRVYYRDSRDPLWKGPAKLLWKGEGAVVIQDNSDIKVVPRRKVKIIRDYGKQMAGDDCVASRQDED

Target: Human immunodeficiency virus type 1 integrase (Human immunodeficiency virus 1, UniProt Q7ZJM1)
Test: Inhibition of Human immunodeficiency virus 1 integrase 3'-processing activity expressed in Escherichia coli using 21-mer DNA and Mg2+ after 2 hrs by polyacrylamide gel electrophoresis

Row | SMILES | IC50
1 | Cc1cn([C@H]2C[C@H](OP(C)(=O)OC[C@H]3O[C@@H](n4cnc5c(=O)[nH]c(N)nc54)C[C@@H]3OP(=O)(O)OC[C@H]3O[C@@H](n4cc(C)c(=O)[nH]c4=O)C[C@@H]3OP(C)(=O)OC[C@H]3O[C@@H](n4cnc5c(=O)[nH]c(N)nc54)C[C@@H]3OP(=O)(O)OC[C@H]3O[C@@H](n4cc(C)c(=O)[nH]c4=O)C[C@@H]3OP(C)(=O)OCCCCCCNC(=S)Nc3ccc(-c4c5cc(Br)c(=O)c(Br)c-5oc5c(Br)c(O)c(Br)cc45)c(C(=O)O)c3)[C@@H](COP(=O)(O)O[C@H]3C[C@H](n4cc(C)c(=O)[nH]c4=O)O[C@@H]3COP(=O)(O)O[C@H]3C[C@H](n4cc(C)c(=O)[nH]c4=O)O[C@@H]3COP(=O)(O)O[C@H]3C[C@H](n4cc(C)c(=O)[nH]c4=O)O[C@@H]3COP(=O)(O)O[C@H]3C[C@H](n4cc(C)c(=O)[nH]c4=O)O[C@@H]3COP(=O)(O)O[C@H]3C[C@H](n4cnc5c(=O)[nH]c(N)nc54)O[C@@H]3COP(=O)(O)O[C@H]3C[C@H](n4cnc5c(=O)[nH]c(N)nc54)O[C@@H]3CO)O2)c(=O)[nH]c1=O (stereo partly drawn) | 100 nM
2 | Cc1cn([C@H]2C[C@H](OP(C)(=O)OC[C@H]3O[C@@H](n4cc(C)c(=O)[nH]c4=O)C[C@@H]3OP(=O)(O)OC[C@H]3O[C@@H](n4cc(C)c(=O)[nH]c4=O)C[C@@H]3OP(=O)(O)OC[C@H]3O[C@@H](n4cnc5c(=O)[nH]c(N)nc54)C[C@@H]3OP(=O)(O)OC[C@H]3O[C@@H](n4cc(C)c(=O)[nH]c4=O)C[C@@H]3OP(C)(=O)OC[C@H]3O[C@@H](n4cnc5c(=O)[nH]c(N)nc54)C[C@@H]3OP(=O)(O)OC[C@H]3O[C@@H](n4cc(C)c(=O)[nH]c4=O)C[C@@H]3OP(=O)(O)OCCCCCCNC(=S)Nc3ccc(-c4c5cc(Br)c(=O)c(Br)c-5oc5c(Br)c(O)c(Br)cc45)c(C(=O)O)c3)[C@@H](COP(=O)(O)O[C@H]3C[C@H](n4cc(C)c(=O)[nH]c4=O)O[C@@H]3COP(C)(=O)O[C@H]3C[C@H](n4cc(C)c(=O)[nH]c4=O)O[C@@H]3COP(=O)(O)O[C@H]3C[C@H](n4cnc5c(=O)[nH]c(N)nc54)O[C@@H]3COP(=O)(O)O[C@H]3C[C@H](n4cnc5c(=O)[nH]c(N)nc54)O[C@@H]3CO)O2)c(=O)[nH]c1=O (stereo partly drawn) | 100 nM
3 | Cc1cn([C@H]2C[C@H](OP(C)(=O)OC[C@H]3O[C@@H](n4cc(C)c(=O)[nH]c4=O)C[C@@H]3OP(C)(=O)OC[C@H]3O[C@@H](n4cc(C)c(=O)[nH]c4=O)C[C@@H]3OP(=O)(O)OC[C@H]3O[C@@H](n4cc(C)c(=O)[nH]c4=O)C[C@@H]3OP(=O)(O)OC[C@H]3O[C@@H](n4cnc5c(=O)[nH]c(N)nc54)C[C@@H]3OP(=O)(O)OC[C@H]3O[C@@H](n4cc(C)c(=O)[nH]c4=O)C[C@@H]3OP(=O)(O)OC[C@H]3O[C@@H](n4cnc5c(=O)[nH]c(N)nc54)C[C@@H]3OP(=O)(O)OC[C@H]3O[C@@H](n4cc(C)c(=O)[nH]c4=O)C[C@@H]3OP(=O)(O)OCCCCCCNC(=S)Nc3ccc(-c4c5cc(Br)c(=O)c(Br)c-5oc5c(Br)c(O)c(Br)cc45)c(C(=O)O)c3)[C@@H](COP(C)(=O)O[C@H]3C[C@H](n4cc(C)c(=O)[nH]c4=O)O[C@@H]3COP(=O)(O)O[C@H]3C[C@H](n4cnc5c(=O)[nH]c(N)nc54)O[C@@H]3COP(=O)(O)O[C@H]3C[C@H](n4cnc5c(=O)[nH]c(N)nc54)O[C@@H]3CO)O2)c(=O)[nH]c1=O (stereo partly drawn) | 110 nM
